The target of this series is T1, rAB-Elavl (UniProt D0CAL6).
T1 sequence (looked up, limits assumed): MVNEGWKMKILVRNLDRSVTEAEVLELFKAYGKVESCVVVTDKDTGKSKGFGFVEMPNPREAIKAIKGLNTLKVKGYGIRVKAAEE
Nature of the series: EMSA. The note with it: 40-160 nM protein, 2.5 nM probe, shifted band not clearly visible, free RNA decreases; AlphaScreen: 25 mM HEPES pH 7.4, 100 mM NaCl, 0.1% BSA, RT; REMSA: 20 mM HEPES pH 7.5, 50 mM KCl, 450 uM BSA, 0.25% glycerol, RT (gel at 4 C); recombinant protein; protein details: C-terminal 6xHis; label: DY681.

The exact form of at least one protein or probe is not confirmed. A weaker result is weaker than the reference pair of the same experiment. Tags and fusion partners may be left off the protein sequences shown.

For the sequence ACCACCCACCACCCACCCACCACCCA [IR-ARE neg], the binding result is recorded as “binds more weakly”.
